Assay results reported in patent publication US20110117106A1, “USES OF CALPAIN INHIBITORS TO INHIBIT INFLAMMATION” (priority 2008, published 2011).

Test system: PMN recruitment into the lung and airway lumen
Assay: Adult C57BL/6 mouse P. aeruginosa infection with bronchoalveolar lavage
Type: in vivo
Settings: 2 hr infection
Procedure: To test the effects of calpain inhibition on the transmigration of PMNs into P. aeruginosa-infected airways, bronchoalveolar lavage (BAL) experiments were performed on adult C57BL/6 mice. Mice were treated with i.p. calpeptin or vehicle and intranasally infected with P. aeruginosa for 2 hr. PMNs from BAL or whole-lung suspension were quantified by flow cytometry. Compared to vehicle-treated controls, calpeptin-treated mice had 37% fewer PMNs recruited into the whole lung and 90% fewer into the airway lumen, indicating a more pronounced effect on the epithelial junctions (FIG. 8D). […] Thus, recruitment of PMNs into the murine lung and airway lumen in response to P. aeruginosa is facilitated by calpain activity and its effects on junctional proteins at the mucosal surface.

## CCCC[C@@H](C=O)NC(=O)[C@H](CC(C)C)NC(=O)OCc1ccccc1 [calpeptin, Z-Leu-Nle-CHO]
  Bacterial load in the lung: did not affect
